Measurements reported in PubChem BioAssay AID1259414 (Drosophila RNAi Screening Center, 2018).
The screen tested about 24,000 reagents; below is a random part of those with a known target gene and a result. Of all reagents, about 1,210 (5%) were called active. 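Inactive calls also include excluded dsRNAs with several or no targets, genes unexpressed in JW18, and well A1, regardless of score.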 Entries without a mark were called inactive. Reagent sequences are not shown.

Screen: 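Fly genes that alter Wolbachia amount inside host cells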 (primary screen)
Cell system: Drosophila JW18 cells infected with Wolbachia
Reagent: long dsRNA against Drosophila genes, 0.25 µg dsRNA per well of a 384-well plate
Timing: 5 days
Conditions: cells persistently infected with Wolbachia before knock-down; no added drug
Read-out: 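Imaged fluorescence in situ signal for Wolbachia 23S rRNA per DAPI-counted host cell, given as a robust z-score within each plate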
Direction: Wolbachia per cell robust z: higher = more Wolbachia per host cell than the plate typical
Active means: 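Hit when robust z is 1.5 or more, or -1.5 or less, in at least two of three replicates; excludes dsRNAs with several or no targets, genes not expressed in JW18 and well A1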

For CG7739 [DRSC10910] the deposit lists Wolbachia per cell robust z, rep 1 = -0.129; Wolbachia per cell robust z, rep 2 = -1.97; Wolbachia per cell robust z, rep 3 = -0.134.
After knock-down of dpy (dumpy) [DRSC00233] the results were Wolbachia per cell robust z, rep 1 = -0.533; Wolbachia per cell robust z, rep 2 = -1.21; Wolbachia per cell robust z, rep 3 = -0.771.
For dpy (dumpy) [DRSC00234], the entry reads Wolbachia per cell robust z, rep 1 = -1.35; Wolbachia per cell robust z, rep 2 = -1.59; Wolbachia per cell robust z, rep 3 = -0.911.
Depletion of dpy (dumpy) [DRSC00472] resulted in: Wolbachia per cell robust z, rep 1 = -1.24; Wolbachia per cell robust z, rep 2 = -0.526; Wolbachia per cell robust z, rep 3 = 0.417.
Knock-down of Sfp33A4 (Seminal fluid protein 33A4) [DRSC41431] resulted in: Wolbachia per cell robust z, rep 1 = 1.11; Wolbachia per cell robust z, rep 2 = -2.15; Wolbachia per cell robust z, rep 3 = -1.34.
Grip75 [DRSC03337] scored Wolbachia per cell robust z, rep 1 = -0.236; Wolbachia per cell robust z, rep 2 = 0.945; Wolbachia per cell robust z, rep 3 = -1.7.
CG13306 [DRSC09976] showed Wolbachia per cell robust z, rep 1 = 0.974; Wolbachia per cell robust z, rep 2 = 0.678; Wolbachia per cell robust z, rep 3 = 1.35.
With knock-down of mxt (mextli) [DRSC25001] the results were Wolbachia per cell robust z, rep 1 = 0.619; Wolbachia per cell robust z, rep 2 = -0.027; Wolbachia per cell robust z, rep 3 = 0.0268.
Silencing of sac (sterile affecting ciliogenesis) [DRSC12237] resulted in: Wolbachia per cell robust z, rep 1 = -0.119; Wolbachia per cell robust z, rep 2 = 0.138; Wolbachia per cell robust z, rep 3 = -0.623.
Silencing of sac (sterile affecting ciliogenesis) [DRSC27045] came out at: Wolbachia per cell robust z, rep 1 = 0.629; Wolbachia per cell robust z, rep 2 = -0.561; Wolbachia per cell robust z, rep 3 = -0.346.
Silencing of Coprox (Coproporphyrinogen oxidase) [DRSC01996] resulted in: Wolbachia per cell robust z, rep 1 = 1.32; Wolbachia per cell robust z, rep 2 = 0.346; Wolbachia per cell robust z, rep 3 = 0.47.
After knock-down of Coprox (Coproporphyrinogen oxidase) [DRSC28744], the screen gave Wolbachia per cell robust z, rep 1 = 0.0832 (active); Wolbachia per cell robust z, rep 2 = -1.67; Wolbachia per cell robust z, rep 3 = -2.56.

Looked up above.
Under “Wolbachia per cell robust z, rep 1”, Sfp33A4 (Seminal fluid protein 33A4) [DRSC41431] is entered as 1.11
dpy (dumpy) [DRSC00472], Wolbachia per cell robust z, rep 1 = -1.24
